Measurements as given in patent US6649639B2, “Antipicornaviral compounds, compositions containing them, and methods for their use” (priority 1997, dated 2003).

Tests used:
Format in all cases: cell-based, human rhinovirus
Details in all cases: CC50 divided by EC50
HRV serotype 1A = assay: Antirhinoviral HI-HeLa Cell Culture Assay (XTT cell protection), HRV serotype 1A
Method: (§1) In the Cell Protection Assay, the ability of compounds to protect cells against HRV infection was measured by the XTT dye reduction method. This method is described in Weislow, O. S., Kiser, R., Fine, D. L., Bader, J., Shoemaker, R. H., Boyd, M. R., J. Natl. Cancer Inst. 1989, 81, 577-586, the disclosure of which is incorporated herein by reference.
(§2) Infected or mock-infected cells were suspended at 8×10^5 cells per mL and incubated with appropriate concentrations of compounds of formula I. Two days later, XTT/PMS was added to test plates, and the amount of formazan produced was quantified spectrophotometrically at 450/650 nm. […] The therapeutic index (TI) was calculated by dividing the CC50 by the EC50.
(§3) All strains of human rhinovirus (HRV) for use in this assay were purchased from American Type Culture Collection (ATCC) except for HRV serotype-14, which was produced from the infectious cDNA clone constructed and supplied to Applicants by Dr. Robert Rueckert at the Institute for Molecular Virology, University of Wisconsin, Madison, Wis. HRV stocks were propagated, and viral assays were performed in HI-HeLa cells (ATCC). Cells were grown in Minimal Essential Medium, available from Life Technologies, with 10% fetal bovine serum.
(§4) The compounds were tested against control compounds WIN 51711, WIN 52084, and WIN 54954, all obtained from Sterling-Winthrop Pharmaceuticals, and control compound Pirodavir, obtained from Janssen Pharmaceuticals. Antiviral data obtained for the test compounds are shown in Table 2 where all data are for HRV serotype-14 unless otherwise noted in parentheses.

HRV serotype-14 = assay: Antirhinoviral HI-HeLa Cell Culture Assay (XTT cell protection), HRV-14
Method: as §1, §2, §3, §4

HRV serotype 10 = assay: Antirhinoviral HI-HeLa Cell Culture Assay (XTT cell protection), HRV serotype 10
Method: as §1, §2, §3, §4

| SMILES | TI (HRV serotype 1A) | TI (HRV serotype-14) | TI (HRV serotype 10) |
| --- | --- | --- | --- |
| CCOC(=O)C=CC(CCC(N)=O)NC(=O)C(CC(=O)C(NC(=O)c1cc(C)on1)C(C)C)Cc1ccc(F)cc1 (centres unmarked) [Compound 34] | >10 | >30 | >7 |
| CC(C)C(NC(=O)SC1CCCC1)C(=O)CC(Cc1ccc(F)cc1)C(=O)NC(C=CC(=O)OCCO)CCC(N)=O (centres unmarked) [Compound 33] | >18 | >62 | >20 |
| CC(C)C(NC(=O)SC(C)(C)C)C(=O)CC(Cc1ccc(F)cc1)C(=O)NC(C=CC(=O)OCc1cccnc1)CCC(N)=O (centres unmarked) [Compound 32] | >14 | >80 | >16 |
| CC(C)C(NC(=O)C1SCCS1)C(=O)CC(Cc1ccc(F)cc1)C(=O)NC(C=CC(=O)OCc1cccnc1)CCC(N)=O (centres unmarked) [Compound 30] |  | >66 |  |
| CCOC(=O)C=CC(CCC(N)=O)NC(=O)C(CC(=O)C(NC(=O)C1SCCS1)C(C)C)Cc1ccc(F)cc1 (centres unmarked) [Compound 27] | >0.5 | >16 | >0.3 |
| CC(C)C(NC(=O)SC1CCCC1)C(=O)CC(Cc1ccc(F)cc1)C(=O)NC(C=CC(=O)OCc1cccnc1)CCC(N)=O (centres unmarked) [Compound 28] | >16 | >400 | >10 |
| CCOC(=O)C=CC(CCC(N)=O)NC(=O)C(CC(=O)C(NC(=O)C1SCCCS1)C(C)C)Cc1ccc(F)cc1 (centres unmarked) [Compound 31] | >0.4 | >18 | >0.6 |
| CCOC(=O)/C=C/C(CCC(N)=O)NC(=O)C(CC(=O)C(CC(C)C)NC(=O)OCc1ccccc1)Cc1ccccc1 [Compound 1, Ethyl-3-(CBZ-L-LeuΨ[COCH2]-L-Phe-L-Gln)-E-Propenoate] |  | >889 |  |
| CCOC(=O)C=CC(CCC(N)=O)NC(=O)C(CC(=O)C(NC(=O)SC(C)(C)C)C(C)C)Cc1ccc(F)cc1 (centres unmarked) [Compound 26] | >20 | >200 | >18 |
